PubChem BioAssay AID624099 – ICCB-Longwood, 2012
The whole screen tested about 21,000 reagents; this is a random part of them. 497 of all reagents (2.4%) count as active. 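Higher z means weaker E2 silencing; only reporter increases were scored, and knock-downs that hurt cell survival may mask genuine repressor factors.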 Entries without a mark were called inactive.

Screen: 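Knock-downs relieving repression by E2 of an HPV18 LCR luciferase reporter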 (primary screen)
Cells: human C33A cervical carcinoma cells (HPV-negative) stably expressing BPV1 E2 and an HPV18 LCR luciferase reporter
Reagent: siRNA pool against human genes, 40 nM
Duration: 72 h
Read-out: 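Per-well luciferase luminescence, z-scored on each plate against the plate mean and SD with control wells left out, then averaged across three replicate plates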
Reading the numbers: mean z-score and z-score: higher = stronger reporter signal, weaker E2 silencing
Hit rule: 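Hit if mean z-score reaches 2 and two or more of three replicate z-scores also reach 2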

| gene knocked down | mean z-score | z-score, replicate A | z-score, replicate B | z-score, replicate C |
| --- | --- | --- | --- | --- |
| GSTM1 (glutathione S-transferase mu 1) | 1.14 | 0.27 | 1.93 | 1.24 |
| TCN2 (transcobalamin 2) | -1.33 | -1.23 | -1.37 | -1.37 |
| TIPE1 (TNF alpha induced protein 8 like 1) | -0.13 | -0.13 | -0.5 | 0.23 |
| ZNF611 (zinc finger protein 611) | -0.08 | -0.37 | 0.16 | -0.02 |
| C9orf57 (chromosome 9 open reading frame 57) | 0.84 | 0.53 | 0.53 | 1.46 |
| ZNF468 (zinc finger protein 468) | 0.54 | 0.42 | 0.51 | 0.69 |
| LOC400600 (retired record) | 0.11 | 0.44 | -0.11 | 0.01 |
| PLCD4 (phospholipase C delta 4) | -0.72 | -0.72 | -0.46 | -0.97 |
| ZXDC (ZXD family zinc finger C) | 1.04 | 1.23 | 0.86 | 1.03 |
| MFSD6 (major facilitator superfamily domain containing 6) | 0.33 | -0.08 | 0.55 | 0.51 |
| LOC390613 (retired record) | 0.63 | 0.73 | 0.24 | 0.92 |
| RAB37 (RAB37, member RAS oncogene family) | -0.53 | -0.52 | -0.52 | -0.57 |
| FGF8 (fibroblast growth factor 8) | -0.1 | -0.31 | -0.01 | 0.02 |
| COL21A1 (collagen type XXI alpha 1 chain) | 1.14 | 1.59 | 0.5 | 1.31 |
| PAIP1 (poly(A) binding protein interacting protein 1) | -0.44 | -0.47 | -0.5 | -0.35 |
| FGFR1 (fibroblast growth factor receptor 1) | -1.06 | -0.37 | -1.5 | -1.3 |
| LOC401280 (retired record) | -0.5 | -0.63 | -0.4 | -0.48 |
| RRS1 (regulator of ribosome synthesis 1) | 0.96 | 1.21 | 0.51 | 1.16 |
| NPM2 (nucleophosmin/nucleoplasmin 2) | 0.38 | 0.53 | 0.55 | 0.04 |
| GALR1 (galanin receptor 1) | 2.06 | 2.5 | 1.73 | 1.94 |
| DLGAP3 (DLG associated protein 3) | -0.22 | -0.23 | -0.22 | -0.2 |
| L3MBTL4 (L3MBTL histone methyl-lysine binding protein 4) | -0.2 | -0.27 | -0.23 | -0.1 |

Laid out differently: entries from further up
{"gene knocked down":"TIPE1 (TNF alpha induced protein 8 like 1)","mean z-score":-0.13,"z-score, replicate A":-0.13,"z-score, replicate B":-0.5,"z-score, replicate C":0.23}
{"gene knocked down":"ZNF611 (zinc finger protein 611)","mean z-score":-0.08,"z-score, replicate A":-0.37,"z-score, replicate B":0.16,"z-score, replicate C":-0.02}
{"gene knocked down":"C9orf57 (chromosome 9 open reading frame 57)","mean z-score":0.84,"z-score, replicate A":0.53,"z-score, replicate B":0.53,"z-score, replicate C":1.46}
{"gene knocked down":"ZNF468 (zinc finger protein 468)","mean z-score":0.54,"z-score, replicate A":0.42,"z-score, replicate B":0.51,"z-score, replicate C":0.69}
{"gene knocked down":"LOC400600 (retired record)","mean z-score":0.11,"z-score, replicate A":0.44,"z-score, replicate B":-0.11,"z-score, replicate C":0.01}
{"gene knocked down":"PLCD4 (phospholipase C delta 4)","mean z-score":-0.72,"z-score, replicate A":-0.72,"z-score, replicate B":-0.46,"z-score, replicate C":-0.97}
{"gene knocked down":"ZXDC (ZXD family zinc finger C)","mean z-score":1.04,"z-score, replicate A":1.23,"z-score, replicate B":0.86,"z-score, replicate C":1.03}
{"gene knocked down":"MFSD6 (major facilitator superfamily domain containing 6)","mean z-score":0.33,"z-score, replicate A":-0.08,"z-score, replicate B":0.55,"z-score, replicate C":0.51}
{"gene knocked down":"LOC390613 (retired record)","mean z-score":0.63,"z-score, replicate A":0.73,"z-score, replicate B":0.24,"z-score, replicate C":0.92}

Next entries follow.
| gene knocked down | mean z-score | z-score, replicate A | z-score, replicate B | z-score, replicate C |
| --- | --- | --- | --- | --- |
| TIPE3 (TNF alpha induced protein 8 like 3) | -0.14 | 0.47 | -0.62 | -0.28 |
| MPP3 (MAGUK p55 scaffold protein 3) | -1.35 | -1.32 | -1.38 | -1.35 |
| ADRA2C (adrenoceptor alpha 2C) | 2.45 (active) | 2.22 | 2.7 | 2.44 |
| LOC387931 (retired record) | 0.16 | 0.4 | 0.19 | -0.12 |
| CNGA3 (cyclic nucleotide gated channel subunit alpha 3) | 0.41 | 0.31 | 0.52 | 0.39 |
| EBNA1BP2 (EBNA1 binding protein 2) | -2.24 | -2.34 | -2.1 | -2.29 |
| OR4K14 (olfactory receptor family 4 subfamily K member 14) | -1.56 | -1.01 | -1.73 | -1.95 |
| LCORL (ligand dependent nuclear receptor corepressor like) | -0.95 | -0.89 | -0.98 | -0.97 |
| DBF4B (DBF4B-CDC7 kinase regulatory subunit) | 0.05 | 0.53 | 0.04 | -0.41 |
| ADAM33 (ADAM metallopeptidase domain 33) | -0.52 | -0.67 | -0.42 | -0.47 |
| XPR1 (xenotropic and polytropic retrovirus receptor 1) | 0.52 | 0.97 | 0.32 | 0.28 |
| LOC388131 (retired record) | -0.8 | -0.92 | -0.6 | -0.86 |
| LRIT1 (leucine rich repeat, Ig-like and transmembrane domains 1) | 0.67 | 0.85 | 0.69 | 0.48 |
| FAM186A (family with sequence similarity 186 member A) | 0.1 | -0.03 | 0.14 | 0.2 |
| CENATAC (centrosomal AT-AC splicing factor) | 1.51 | 1.98 | 1.45 | 1.1 |
| TMEM184B (transmembrane protein 184B) | 1.97 | 1.66 | 1.68 | 2.59 |
| CMC2 (C-X9-C motif containing 2) | -0.56 | -0.72 | -0.4 | -0.55 |
| CPD (carboxypeptidase D) | 3.33 (active) | 2.88 | 3.35 | 3.77 |
| PRSS21 (serine protease 21) | 0.53 | 0.44 | 0.32 | 0.82 |
| PYM1 (PYM1 exon junction complex associated factor) | -1.61 | -1.68 | -1.64 | -1.52 |
| SCGB2A1 (secretoglobin family 2A member 1) | 0 | -0.37 | -0.04 | 0.42 |
| LOC389268 (retired record) | -0.41 | -0.67 | -0.4 | -0.16 |
| PRSS45P (serine protease 45, pseudogene) | -0.87 | -0.56 | -1.26 | -0.78 |
| NT5E (5'-nucleotidase ecto) | 0.28 | 0.57 | 0.12 | 0.14 |
| ECM2 (extracellular matrix protein 2) | -0.55 | -0.67 | -0.52 | -0.47 |
| CCDC69 (coiled-coil domain containing 69) | 0.92 | 0.81 | 1.01 | 0.93 |
| FUCA2 (alpha-L-fucosidase 2) | -0.41 | -0.45 | -0.5 | -0.27 |
| LSM2 | -1.37 | -1.29 | -1.48 | -1.33 |
| CALHM3 (calcium homeostasis modulator 3) | 1.19 | 1.7 | 0.98 | 0.91 |
| HPN (hepsin) | 1.57 | 1.75 | 1.7 | 1.24 |
| STAT5B (signal transducer and activator of transcription 5B) | -0.3 | -0.28 | -0.36 | -0.25 |
| RPL3 (ribosomal protein L3) | -2.19 | -2.19 | -2.18 | -2.19 |
| CFD (complement factor D) | -0.28 | -0.03 | -0.56 | -0.25 |
| RANBP9 (RAN binding protein 9) | -0.96 | -0.87 | -1.02 | -1 |
| DDX31 (DEAD-box helicase 31) | -2.5 | -2.79 | -2.38 | -2.32 |
